Consider one molecule from the CheMixHub viscosity set.

Each structure is given as a SMILES string. ± gives the uncertainty stated by the source.

A short description of this data set: xn = mol fraction of the nth substance listed. Conditions: 101.33 kPa, x1 = 0.1918.

With `OCCOCCOCCOCCO` + O, the viscosity is reported as 13.82 ± 0.14 mPa·s (303.15 K) and 11.04 ± 0.12 mPa·s (308.15 K).
